Pooled drug test results. Numbers come from NIAID ChemDB, via PubChem.

Shared fields: growth or infection tests; organism: Mycobacterium tuberculosis

MIC bound comes from a single tested concentration.

smiles,measure,method,cells,dose,strain or isolate,value
CO[C@H]1/C=C/O[C@@]2(C)Oc3c(C)c(O)c4c(O)c(c(/C=N/N5CCN(C)CC5)c(O)c4c3C2=O)NC(=O)/C(C)=C\C=C\[C@H](C)[C@H](O)[C@@H](C)[C@@H](O)[C@@H](C)[C@H](OC(C)=O)[C@@H]1C,MIC,-,-,-,H37Rv,0.6 µg/mL
COc1ccc2nc(Cl)c(C3C4=C(CCCC4=O)N(c4cccnc4)C(N)C3C#N)cc2c1,inhibition,-,-,6.25 µg/mL,H37Rv,65%
Cc1ccc(C2=NNC(c3cn(-c4ccc(Cl)cc4)nc3-c3ccccc3)C2)o1,MIC,resazurin,-,-,H37Rv,25 µg/mL
CNC(=O)OCc1nc(N=[N+]=[N-])n(C)c1COC(=O)NC,MIC bound,resazurin,-,-,H37Rv,>6.25 µg/mL
C/C(CCC(=O)O)=N\NC(=O)c1cccnc1,MIC,-,-,-,-,100–1000 µg/mL
COC(=O)C1C(c2cc3cc(C)ccc3nc2Cl)C2=C(CCCC2=O)N(c2cccnc2)C1N,inhibition,-,-,6.25 µg/mL,H37Rv,25%
Cn1c(=O)cc(Oc2nc(Nc3ccc(C#N)cc3)nc(Nc3nc4ccc(Br)cc4s3)n2)c2ccccc21,MIC,agar,-,-,-,50 µg/mL
O=C(Nc1cc(C2=NCCN2)cc(C2=NCCN2)c1)c1ccc(C(=O)Nc2cc(C3=NCCN3)cc(C3=NCCN3)c2)cc1,MIC bound,resazurin,-,-,H37Rv,>6.25 µg/mL
Cn1c(=O)cc(Oc2nc(Nc3ccc(C#N)cc3)nc(Nc3nc4ccc(F)cc4s3)n2)c2ccccc21,EC99,agar,-,-,-,25 µg/mL
NNC(=O)c1cccnc1,MIC,-,-,-,-,10 µg/mL
CO[C@H]1/C=C/O[C@@]2(C)Oc3c(C)c(O)c4c(=O)c(c5oc6cc(N7CCN(CC(C)C)CC7)cc(=O)c6nc5c4c3=C2O)NC(=O)/C(C)=C\C=C\[C@H](C)[C@H](O)[C@@H](C)[C@@H](O)[C@@H](C)[C@H](O)[C@@H]1C,MIC,-,-,-,H37Rv,0.017 µg/mL
CN1CCN(c2nc(=O)c3cc(C(F)(F)F)cc(C(=O)O)c3s2)CC1,MIC,resazurin,-,-,H37Rv,0.25 µg/mL
CC1=[N+](C)N(c2ccccc2)C(=O)C1Nc1nc(Nc2ccc(C#N)cc2)nc(Oc2cc(=O)n(C)c3ccccc23)n1,MIC,agar,-,-,-,62.5 µg/mL
COC(=O)C1C(c2cc3cc(Cl)ccc3nc2Cl)C2=C(CCCC2=O)N(c2cccnc2)C1N,inhibition,-,-,6.25 µg/mL,H37Rv,84%
O=C1C(=O)C(Cl)=C(Cl)C(Cl)=C1Cl,inhibition,BACTEC,-,6.25 µg/mL,H37Rv,0%
CCCCCCCCO[C@@H]1O[C@H]([C@@H](COC)O[C@H]2O[C@H](CO)[C@@H](O)[C@@H]2O)[C@H](OC)[C@H]1OC,MIC,-,-,-,H37Ra,>128 µg/mL
CCCN1CCN(c2cc(=O)c3nc4c(oc3c2)c2c(=O)c3c(O)c(C)c5c(c34)=C(O)[C@@](C)(O/C=C/[C@H](OC)[C@@H](C)[C@@H](OC(C)=O)[C@H](C)[C@H](O)[C@H](C)[C@@H](O)[C@@H](C)/C=C/C=C(/C)C(=O)N2)O5)CC1,MIC,-,-,-,H37Rv,0.07 µg/mL
C=CC1(C)CCC2C(=CCC3C(C)(COC4OC(CO)C(O)C(O)C4O)C(O)CCC23C)C1,inhibition,BACTEC,-,12.5 µg/mL,H37Rv,0%
CCCCCCCC/C=C\CCCCCCC/C=N/NC(=O)c1ccncc1,MIC,-,-,-,-,100 µg/mL
Cc1c(N=Nc2ccc(Cl)cc2)c(C)n([C@@H]2O[C@H](CO)[C@H](O)[C@H](O)[C@H]2O)c(=S)c1C#N,MIC bound,resazurin,-,-,H37Rv,>6.25 µg/mL
Clc1ccc(-n2cc(C3CC(c4ccc5c(c4)CCO5)=NN3)c(-c3ccccc3)n2)cc1,MIC,resazurin,-,-,H37Rv,12.5 µg/mL
CO[C@H]1/C=C/O[C@@]2(C)Oc3c(C)c(O)c4c(=O)c(c5oc6cc(N7CCN(CC(C)C)CC7)cc(=O)c6nc5c4c3=C2O)NC(=O)/C(C)=C\C=C\[C@H](C)[C@H](O)[C@@H](C)[C@@H](O)[C@@H](C)[C@H](OC(C)=O)[C@@H]1C,MIC,-,-,-,Erdman,0.15 µg/mL
CC[C@@H](CO)NCCN[C@@H](CC)CO,MIC,-,-,-,H37Rv,3.465 µg/mL
CCOC(=O)c1ccc(Cl)cc1S(=O)(=O)NC(=O)Nc1nccc(C)n1,MIC,-,-,-,H37Rv,10 µg/mL
Cc1ccc(-c2nn(-c3ccc(Cl)cc3)cc2C2CC(c3ccc(-c4ccccc4)cc3)=NN2)cc1,MIC,resazurin,-,-,H37Rv,50 µg/mL
NNC(=O)C1CCC1C(=O)NN,MIC bound,BACTEC,-,-,H37Rv,>12.5 µg/mL
CCN(CC)c1ccc(/C=N/NC(=O)c2ccncc2)cc1,MIC,-,-,-,-,1 µg/mL
CCOP(=O)(Nc1ccc(C(=O)OC)c(S(=O)(=O)NC(=O)Nc2nccc(C)n2)c1)OCC,MIC,-,-,-,H37Rv,>80 µg/mL
N#CC1C(c2cc3cc(Cl)ccc3nc2Cl)C2=C(CCCC2=O)N(c2cccnc2)C1N,inhibition,-,-,6.25 µg/mL,H37Rv,14%
NNC(=O)c1cc(-c2ccccc2)nc2ccccc12,MIC,-,-,-,-,>40 µg/mL
Cn1c(=O)cc(Oc2nc(Nc3ccc(C#N)cc3)nc(Sc3nnc(-c4ccncc4)o3)n2)c2ccccc21,MIC,agar,-,-,-,62.5 µg/mL
NNC(=O)c1ccncc1,MIC,-,-,-,H37Rv,0.107 µg/mL
COc1ccc(/C=N/NC(=O)c2cccnc2)cc1,MIC,-,-,-,-,1–10 µg/mL
COc1ccc(-c2nn(-c3ccc(Cl)cc3)cc2C2CC(c3ccc(C)o3)=NN2)cc1,MIC,resazurin,-,-,H37Rv,25 µg/mL
C[C@H]1COC2(CCN(c3nc(=O)c4cc(C(F)(F)F)cc(C(=O)O)c4s3)CC2)O1,MIC99,resazurin,-,-,MDR_CHUV,0.002 µg/mL
Cn1ccn(C)c1=S,MIC bound,BACTEC,-,-,H37Rv,>12.5 µg/mL
CC(=O)OC1OC(=O)C=C1[C@H]1CC=C(CC/C=C(\C)CCC2=C(C)CCCC2(C)C)C(O)C1,MIC,-,-,-,H37Ra,7 µM
CCOC(=O)c1ccc(NC(=O)CCl)cc1S(=O)(=O)NC(=O)Nc1nccc(C)n1,MIC,-,-,-,H37Rv,>80 µg/mL
CCn1cc(C(=O)O)c(=O)c2cc(F)c(N3CCNC(C)C3)c(F)c21,MIC90,-,-,-,11 strains (drug-resistant),1.1 µg/mL
Cc1cc(=O)n2c(nc3cc([N+](=O)[O-])ccc32)s1,MIC bound,resazurin,-,-,H37Rv,>6.25 µg/mL
[2H]C([2H])([2H])OC(=O)N/C=C/CCCc1cc(O)c(C(=O)/C(C)=C/c2cnc(Oc3ccc(F)c(Cl)c3)s2)c(=O)o1,MIC,fluorescence,-,-,H37Rv,0.8 µg/mL
CCOC(=O)/C=C/c1ccc(OC)cc1,MIC,resazurin,-,-,BTB09-157,242 µM
CO[C@H]1/C=C/O[C@@]2(C)Oc3c(C)c(O)c4c(=O)c(c5oc6cc(N(C)CCN(C)C)cc(=O)c6nc5c4c3=C2O)NC(=O)/C(C)=C\C=C\[C@H](C)[C@H](O)[C@@H](C)[C@@H](O)[C@@H](C)[C@H](OC(C)=O)[C@@H]1C,MIC,-,-,-,H37Rv,0.07 µg/mL
CC(=O)C(N=Nc1ccc(S(=O)(=O)Nc2ccccn2)cc1)C(=O)Nc1ccc(Cl)cc1,MIC bound,resazurin,-,-,H37Rv,>6.25 µg/mL
CCOC(=O)/C(C#N)=N/Nc1ccc(C(=O)OC)c(S(=O)(=O)NC(=O)Nc2nccc(C)n2)c1,MIC,-,-,-,H37Rv,>80 µg/mL
CCc1cc(C(N)=S)ccn1,MIC,-,-,-,H37Rv (drug-susceptible),32 µM
Cn1c(=O)cc(Oc2nc(Nc3ccc(C#N)cc3)nc(Sc3nc4ccccc4s3)n2)c2ccccc21,MIC,agar,-,-,-,100 µg/mL
O=C(C[n+]1cccc(C(=O)Nc2ccccc2)c1)Nc1ccc(Cl)cc1.[Cl-],MIC,BACTEC,-,-,H37Rv,≥12.5 µg/mL
NC(=S)c1ccc(N)cc1,MIC,-,-,-,H37Rv (INH-resistant),128 µM
NNC(=O)CNC(=O)OCc1ccccc1,inhibition,BACTEC,-,12.5 µg/mL,H37Rv,11%
CO[C@H]1/C=C/O[C@@]2(C)Oc3c(C)c(O)c4c(O)c(c(/C=N/N5CCN(C6CCCC6)CC5)c(O)c4c3C2=O)NC(=O)/C(C)=C\C=C\[C@H](C)[C@H](O)[C@@H](C)[C@@H](O)[C@@H](C)[C@H](OC(C)=O)[C@@H]1C,MIC,-,-,-,CSU22,>5 µg/mL
COc1ccc2[nH]c3c(c2c1)C(=O)c1ccncc1C3=O,MIC bound,resazurin,-,-,H37Rv,<6.25 µg/mL
CCOC(=O)C1C(c2cc3cc(Cl)ccc3nc2Cl)C2=C(CCCC2=O)N(c2cccnc2)C1N,inhibition,-,-,6.25 µg/mL,H37Rv,52%
CC[C@@H](CO)NCCN[C@@H](CC)CO,MIC,-,-,-,N128,16 µg/mL
CCCCCCCCO[C@@H]1O[C@H]([C@@H](CO)O[C@H]2O[C@H](CO)[C@@H](O)[C@@H]2O)[C@H](O)[C@H]1O,MIC,-,-,-,H37Ra,>128 µg/mL
Cc1ccc(C2=NNC(c3cn(-c4ccc(Cl)cc4)nc3-c3cccs3)C2)o1,MIC,resazurin,-,-,H37Rv,50 µg/mL
c1ccc(Nc2nc(N/N=C3\CN4CCC3CC4)nc(N3CCCCC3)n2)cc1,MIC,MTT,-,-,H37Ra,0.1 µg/mL
O=C(N/N=C/c1ccco1)c1ccc(OCc2nc3ccccc3[nH]2)cc1,MIC bound,BACTEC,-,-,H37Rv,>12.5 µg/mL
CC(=O)Nc1ccc(C(N)=S)cc1,MIC,-,-,-,H37Rv,512 µM
Cc1cc(O)c2c(c1)C(=O)C(c1c(C)cc3c(c1O)C(=O)C1OC1C3=O)=CC2=O,MIC,-,VERO,-,H37Rv,0.8 µg/mL
CO[C@H]1/C=C/O[C@@]2(C)Oc3c(C)c(O)c4c(=O)c(c5oc6cc(N7CCCN(C)CC7)cc(=O)c6nc5c4c3=C2O)NC(=O)/C(C)=C\C=C\[C@H](C)[C@H](O)[C@@H](C)[C@@H](O)[C@@H](C)[C@H](OC(C)=O)[C@@H]1C,MIC,-,-,-,H37Rv,0.15 µg/mL
CN(CC1=C(O)C(=O)C(CN(C)Cc2c(O)ccc3ccccc23)=C(O)C1=O)Cc1c(O)ccc2ccccc12,inhibition,BACTEC,-,12.5 µg/mL,H37Rv,4%
COC(=O)c1ccc(NS(C)(=O)=O)cc1S(=O)(=O)NC(=O)Nc1nccc(C)n1,MIC,-,-,-,H37Rv,>80 µg/mL
COc1cccc2c1C(=O)c1c(O)c3c(c(O)c1C2=O)CC(O)(C(C)=O)CC3OC1CC(NCC2(O)OC(C(=O)NCCCN(C)C)C(O)C2O)C(O)C(C)O1,MIC bound,BACTEC,-,-,H37Rv,≤12.5 µg/mL
O=C(N/N=C/CCc1ccccc1)c1ccncc1,MIC,-,-,-,-,0.1 µg/mL
CN(C)c1cc(C(N)=S)ccn1,MIC,-,-,-,H37Rv (INH-resistant),512 µM
COC(=O)c1ccc(Br)cc1S(=O)(=O)NC(=O)Nc1nccc(OC)n1,MIC,-,-,-,H37Rv,>80 µg/mL
CNC(=O)OCC1=C(Sc2ccccc2)C(=O)C(OC)=C(OC)C1=O,MIC bound,resazurin,-,-,H37Rv,>6.25 µg/mL
CO[C@H]1/C=C/O[C@@]2(C)Oc3c(C)c(O)c4c(=O)c(c5oc6cc(N7CCC7)cc(=O)c6nc5c4c3=C2O)NC(=O)/C(C)=C\C=C\[C@H](C)[C@H](O)[C@@H](C)[C@@H](O)[C@@H](C)[C@H](OC(C)=O)[C@@H]1C,MIC,-,-,-,H37Rv,0.008 µg/mL
S=C(S)N1CCNCC1,inhibition,BACTEC,-,12.5 µg/mL,H37Rv,24%
CC(=O)Oc1ccc(/C=N/NC(=O)c2ccncc2)cc1,MIC,-,-,-,-,1 µg/mL
Cc1nc(Nc2nc3ccccc3[nH]2)nc(Cl)c1CCCl,inhibition,BACTEC,-,6.25 µg/mL,H37Rv,0%
CCN1CCN(c2nc(=O)c3cc(C(F)(F)F)cc(C(=O)O)c3s2)CC1,MIC,resazurin,-,-,H37Rv,0.062 µg/mL
CCC(C)COC(=O)Nc1cccc(Cl)c1,MIC,BACTEC,VERO,-,H37Rv,12.5 µg/mL
COC(=O)c1ccc(NC(=O)CCl)cc1S(=O)(=O)NC(=O)Nc1nccc(OC)n1,MIC,-,-,-,H37Rv,>80 µg/mL

Again, the opening 7 rows:

smiles,measure,method,cells,dose,strain or isolate,value
CO[C@H]1/C=C/O[C@@]2(C)Oc3c(C)c(O)c4c(O)c(c(/C=N/N5CCN(C)CC5)c(O)c4c3C2=O)NC(=O)/C(C)=C\C=C\[C@H](C)[C@H](O)[C@@H](C)[C@@H](O)[C@@H](C)[C@H](OC(C)=O)[C@@H]1C,MIC,-,-,-,H37Rv,0.6 µg/mL
COc1ccc2nc(Cl)c(C3C4=C(CCCC4=O)N(c4cccnc4)C(N)C3C#N)cc2c1,inhibition,-,-,6.25 µg/mL,H37Rv,65%
Cc1ccc(C2=NNC(c3cn(-c4ccc(Cl)cc4)nc3-c3ccccc3)C2)o1,MIC,resazurin,-,-,H37Rv,25 µg/mL
CNC(=O)OCc1nc(N=[N+]=[N-])n(C)c1COC(=O)NC,MIC bound,resazurin,-,-,H37Rv,>6.25 µg/mL
C/C(CCC(=O)O)=N\NC(=O)c1cccnc1,MIC,-,-,-,-,100–1000 µg/mL
COC(=O)C1C(c2cc3cc(C)ccc3nc2Cl)C2=C(CCCC2=O)N(c2cccnc2)C1N,inhibition,-,-,6.25 µg/mL,H37Rv,25%
Cn1c(=O)cc(Oc2nc(Nc3ccc(C#N)cc3)nc(Nc3nc4ccc(Br)cc4s3)n2)c2ccccc21,MIC,agar,-,-,-,50 µg/mL

ECn is the concentration giving n% inhibition of infection, replication or growth. A number after MIC or MFC names an inhibition level or a share of isolates. Inhibition is in % at the dose shown (toxicity tests: loss of growth or viability). Lines come from different laboratories, so protocols vary. Blank or dashed fields: not listed here. Two numbers with a dash give a range or band.